In paper PMC8989888, “Development of optimized drug-like small molecule inhibitors of the SARS-CoV-2 3CL protease for treatment of COVID-19” (Nature Communications, 2022) one finds EC50 data, which are given here for three molecules.

Amino acid sequences for entries named in this document (tags omitted). Residues count along the entry.
UniProt K9N7C7, 3248-3553 limits assumed: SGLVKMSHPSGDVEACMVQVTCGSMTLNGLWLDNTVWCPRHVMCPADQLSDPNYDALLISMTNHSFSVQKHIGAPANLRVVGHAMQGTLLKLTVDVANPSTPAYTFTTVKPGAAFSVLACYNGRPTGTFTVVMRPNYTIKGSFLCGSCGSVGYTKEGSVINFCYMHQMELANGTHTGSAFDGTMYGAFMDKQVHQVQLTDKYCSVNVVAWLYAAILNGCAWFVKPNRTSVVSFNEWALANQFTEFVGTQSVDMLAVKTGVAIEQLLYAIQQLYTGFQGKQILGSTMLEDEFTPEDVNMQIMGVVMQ

The target of experiment [1] is MERS-CoV 3CL protease (Middle East respiratory syndrome-related coronavirus, UniProt K9N7C7). Briefly: Mammalian cell-based 3CL protease inhibitor assay (HEK293T, crystal violet): MERS-CoV. The note with it: read-out: MERS-CoV 3CLpro EC50; 293T cells, rescue of growth.
Experiment [2] deals with SARS-CoV 3CL protease (Severe acute respiratory syndrome coronavirus, UniProt P0C6X7). Briefly: Mammalian cell-based 3CL protease inhibitor assay (HEK293T, crystal violet): SARS-CoV. The note with it: read-out: SARS-CoV 3CLpro EC50; 293T cells, rescue of growth.

Consider `CC(C)C[C@H](NC(=O)OCc1cccc(Cl)c1)C(=O)N[C@@H](C[C@@H]1CCNC1=O)C(O)S(=O)(=O)O` (stereo partly drawn) [EB46], for which the EC50 (usually the concentration at which the effect is half-maximal) was 2700 nM in experiment [1] and 1500 nM in experiment [2].
Take `CC(C)C[C@H](NC(=O)OCc1ccccc1Cl)C(=O)N[C@@H](C[C@@H]1CCNC1=O)C(O)S(=O)(=O)O` (stereo partly drawn) [EB54]: the EC50 in experiment [1] was determined as 3200 nM; in experiment [2] it was 7800 nM.
For `CC(C)C[C@H](NC(=O)OCc1ccc2ccccc2c1)C(=O)N[C@@H](C[C@@H]1CCNC1=O)C(O)S(=O)(=O)O` (stereo partly drawn) [EB56], in that order: 1900 nM and 2400 nM.
